Values of other authors in article PMC10384183, “Silver(I) and Copper(II) 1,10-Phenanthroline-5,6-dione Complexes as Promising Antivirulence Strategy against Leishmania: Focus on Gp63 (Leishmanolysin)” (Tropical Medicine and Infectious Disease, 2023).

Test system: L. amazonensis amastigotes
Parameters: method as in PMID 36678418
Settings: Leishmania amastigotes compared to THP-1 macrophage cells; cited from earlier work

| SMILES | SI selectivity index |
| --- | --- |
| O=C1C(=O)c2cccnc2-c2ncccc21.O=C1C(=O)c2cccnc2-c2ncccc21.[Ag+].[O-][Cl+3]([O-])([O-])[O-] [Ag-phendione, [Ag(phendione)2]ClO4] | 42.0 |
| O.O.O.O.O=C1C(=O)c2cccnc2-c2ncccc21.O=C1C(=O)c2cccnc2-c2ncccc21.O=C1C(=O)c2cccnc2-c2ncccc21.[Cu+2].[O-][Cl+3]([O-])([O-])[O-].[O-][Cl+3]([O-])([O-])[O-] [Cu-phendione, [Cu(phendione)3](ClO4)2.4H2O] | 43.4 |
